Assay results taken from PMC7077986, “Molecular basis for catabolism of the abundant metabolite trans-4-hydroxy-L-proline by a microbial glycyl radical enzyme” (eLife, 2020).

Tested on: O=C(O)[C@@H]1C[C@@H](O)CN1
Assay: purified protein
Conditions: activated by HypD-AE, 20 mM Tris-HCl pH 7.5, 50 mM bicine, 100 mM KCl, 400 µM NADH, anaerobic

Row | Substance | Km (kcat is glycyl radical-normalized (un-normalized 0.75 ± 0.01 s^-1)) [mM] | Km (kcat is glycyl radical-normalized (un-normalized 0.33 ± 0.01 s^-1)) [mM]
1 | HypD (trans-4-hydroxy-L-proline dehydratase; CdHypD) (Clostridioides difficile; T645A) | 4.9 ± 0.4 | –
2 | HypD (trans-4-hydroxy-L-proline dehydratase; CdHypD) (Clostridioides difficile; Y450F) | – | 19 ± 3
